Measurements from article PMC7240701 (Journal of medicinal chemistry, 2019).

Test system: T. cruzi CA-I/72 intracellular amastigote
Experiment: Cell-based intracellular T. cruzi amastigote assay

| Compound | LD50 (intracellular amastigotes in C2C12 cells, 72 h) [nM] | LD50 [nM] |
| --- | --- | --- |
| CC[C@H](C)[C@@H](C(=O)O[C@@H](CC(C)C)C(=O)N[C@@H](CC(C)C)C(=O)N[C@@H](C)/C=C/C(=O)N1C(=O)C=C(OC)[C@@H]1C)N(C)C [compound 1, Gallinamide A] | 14.7 | – |
| CC[C@H](C)[C@@H](C(=O)O[C@@H](CC(C)C)C(=O)N[C@@H](CC(C)C)C(=O)N[C@@H](C)/C=C/C(=O)N1C(=O)C=C(OC)[C@@H]1CC(C)C)N(C)C [compound 5, (S)-1-(((S)-1-(((S,E)-5-((S)-2-Isobutyl-3-methoxy-5-oxo-2,5-dihydro-1H-pyrrol-1-yl)-5-oxopent-3-en-2-yl)amino)-4-methyl-1-oxopentan-2-yl)amino)-4-methyl-1-oxopentan-2-yl dimethyl-L-isoleucinate] | – | 5.1 ± 1.4 |

Like-named read-outs stand apart in the source and are kept apart here.
